Measured values from several laboratories, pooled; numbers as filed in NIAID ChemDB.

All rows: growth or infection tests; organism: Candida albicans; endpoint: zone

Two numbers with a dash give a range or band. Zones are inhibition diameters on agar. Blank or dashed fields: not listed here. Conditions beyond the fields shown may differ between rows.

SMILES,strain or isolate,read by,dose,result
C[C@@H]([C@H]1CC[C@H](C)C(=O)C1)[C@H]1CC[C@]2(C)C3=C(CC[C@@]12C)[C@]1(C)CC[C@H](O)C(C)(C)[C@H]1CC3,MTCC 183,agar diffusion / agar,1 µg/disc,17 mm
C(/C=C/c1ccccc1)=NCCNCCN=C/C=C/c1ccccc1.N#C[S][Hg][S]C#N,-,agar diffusion,30000 µg/mL,27 mm
CC(=O)OCC1=C(C(=O)O)N2C(=O)[C@@H](NC(=O)Cc3cccs3)[C@H]2SC1,ATCC 10231,agar diffusion,30 µg,6 mm
CC(=O)Oc1c(-c2ccc(Cl)cc2)oc2ccccc2c1=O,-,agar diffusion,100 µg/mL,17 mm
Cc1ccc(N2NOC(=O)C2S(=O)(=O)Nc2nc3cc(C)ccc3s2)cc1,MTCC 227,agar diffusion,250 µg/mL,22 mm
COc1ccc(-c2oc3ccccc3c(=O)c2OC(C)=O)cc1OC,-,agar diffusion,100 µg/mL,14 mm
CCCCc1nc(Cl)c(-c2cc(-c3ccc4ccccc4c3)nc3c2C(=O)c2ccccc2-3)n1Cc1ccccc1,MTCC 7253,agar diffusion,10 µg/disc,10 mm
Cc1ccc(N2NOC(=O)C2S(=O)(=O)Nc2ccc(-n3c(-c4cccc([N+](=O)[O-])c4)nc4ccccc4c3=O)cc2)cc1,MTCC 227,agar diffusion,250 µg/mL,23 mm
O=c1c(O)c(-c2ccc(F)cc2)oc2ccccc12,-,agar diffusion,100 µg/mL,16 mm
CC(C)(CN=C/C=C/c1ccccc1[N+](=O)[O-])CN=C/C=C/c1ccccc1[N+](=O)[O-],-,agar diffusion,5 mg/disc,21 mm
COc1cc(C2c3c(nc(N)c(C#N)c3N)Oc3[nH]c(=S)[nH]c(=O)c32)cc(OC)c1OC,-,agar diffusion / agar,10000 µg/mL,10 mm
Cc1ccc(N2NOC(=O)C2S(=O)(=O)Nc2ccc(-n3c(-c4cccc(Cl)c4)nc4ccccc4c3=O)cc2)cc1,MTCC 227,agar diffusion,250 µg/mL,25 mm
CCN(CC)N1C(=O)C(C(Sc2ccccc2)c2ccc(C)cc2C)SC1=S,ATCC 2091,agar diffusion / agar,100 mg/mL,16–20 mm
COc1cc(C2c3c(nc[nH]c3=O)Oc3[nH]c(=S)[nH]c(=O)c32)cc(OC)c1OC,-,agar diffusion / agar,10000 µg/mL,11 mm
C[C@@H]1[C@H](O)[C@@H](C)/C=C/C=C/C=C/C=C/C=C/C=C/C=C/[C@H](O[C@@H]2O[C@H](C)[C@@H](O)[C@H](N)[C@@H]2O)C[C@@H]2O[C@](O)(C[C@@H](O)C[C@@H](O)[C@H](O)CC[C@@H](O)C[C@@H](O)CC(=O)O[C@H]1C)C[C@H](O)[C@H]2C(=O)O,MTCC 183,agar diffusion / agar,20 µg/disc,0 mm
CC(C)=CCOc1ccc(C2CC(=O)c3c(O)cc(O)cc3O2)cc1O,ATCC 14053,agar diffusion / agar,100 µg/mL,0 mm
CCCCc1nc(Cl)c(-c2cc(-c3cccs3)nc3c2C(=O)c2ccccc2-3)n1Cc1ccccc1,MTCC 7253,agar diffusion,10 µg/disc,10 mm
CCOC(=O)N1CCN(c2[nH]c(=O)[nH]c(=O)c2CC)CC1,IFO 0583,agar diffusion / agar,200 µg/disc,<10 mm
Cc1ccc([O][Hg][Cl])c(/C=N/NC(=O)Nc2nc(-c3ccccc3)cs2)c1,-,agar diffusion,100 µg/mL,22 mm
CCC(C)n1ncn(-c2ccc(N3CCN(c4ccc(OC[C@H]5CO[C@](Cn6cncn6)(c6ccc(Cl)cc6Cl)O5)cc4)CC3)cc2)c1=O,ATCC 2091,agar diffusion / agar,100 mg/mL,>21 mm
CCc1c(N2CCN(c3ccccc3OC)CC2)[nH]c(=O)[nH]c1=O,IFO 0583,agar diffusion / agar,200 µg/disc,<10 mm
CCN(CC)N1C(=O)C(C(Sc2ccccc2)c2ccc3ccccc3c2)SC1=S,ATCC 2091,agar diffusion / agar,100 mg/mL,16–20 mm
CCCCc1nc(Cl)c(-c2cc(-c3ccc4sc5ccccc5c4c3)nc3c2C(=O)c2ccccc2-3)n1Cc1ccccc1,MTCC 7253,agar diffusion,10 µg/disc,14 mm
CCN(CC)N1C(=O)C(C(Sc2ccccc2)c2ccc(Br)cc2)SC1=S,ATCC 2091,agar diffusion / agar,100 mg/mL,4–9 mm
O=c1c(O)c(-c2ccccc2)oc2ccccc12,-,agar diffusion,100 µg/mL,13 mm
O=C1NC(=S)SC1C(Sc1ccccc1)c1ccc(Cl)cc1,ATCC 2091,agar diffusion / agar,100 mg/mL,16–20 mm
CC(C)CCOc1ccc(C2CC(=O)c3c(O)cc(O)cc3O2)cc1,ATCC 10231,agar diffusion / agar,100 µg/mL,0 mm
C(/C=C/c1ccccc1)=NCCNCCN=C/C=C/c1ccccc1.[I][Hg][I],-,agar diffusion,20000 µg/mL,40 mm
CC(=O)Oc1c(-c2ccccc2)oc2ccccc2c1=O,-,agar diffusion,100 µg/mL,15 mm
CC[C@H]1OC(=O)[C@H](C)[C@@H](O[C@H]2C[C@@](C)(OC)[C@@H](O)[C@H](C)O2)[C@H](C)[C@@H](O[C@@H]2O[C@H](C)C[C@H](N(C)C)[C@H]2O)[C@](C)(O)C[C@@H](C)C(=O)[C@H](C)[C@@H](O)[C@]1(C)O,ATCC 10231,agar diffusion,15 µg,6 mm
CC(=O)Oc1c(-c2ccc(C)cc2)oc2ccccc2c1=O,-,agar diffusion,100 µg/mL,15 mm
Clc1ccccc1C(c1ccccc1)(c1ccccc1)n1ccnc1,IFO 0583,agar diffusion / agar,100 µg/disc,21 mm
CCCCc1nc(Cl)c(-c2cc(-c3ccc(Br)s3)nc3c2C(=O)c2ccccc2-3)n1Cc1ccccc1,MTCC 7253,agar diffusion,10 µg/disc,9 mm
CN(C)c1ccc(-c2oc3ccc(Cl)cc3c(=O)c2O)cc1,-,agar diffusion,100 µg/mL,13 mm
CCc1c(N2CCN(c3ccccc3)CC2)[nH]c(=O)[nH]c1=O,IFO 0583,agar diffusion / agar,200 µg/disc,<10 mm
CC(=O)Oc1c(-c2ccco2)oc2ccccc2c1=O,-,agar diffusion,100 µg/mL,24 mm
N/N=C/c1c(O)[nH]c(=S)[nH]c1=O,-,agar diffusion / agar,10000 µg/mL,0 mm
Cc1ccc(N2NOC(=O)C2S(=O)(=O)Nc2nc3ccc(C)cc3s2)cc1,MTCC 227,agar diffusion,250 µg/mL,23 mm
CCCCc1nc(Cl)c(-c2cc(-c3cc(OC)c(OC)c(OC)c3)nc3c2C(=O)c2ccccc2-3)n1Cc1ccccc1,MTCC 7253,agar diffusion,10 µg/disc,10 mm
CN(C)[C@@H]1C(=O)C(C(N)=O)=C(O)[C@@]2(O)C(=O)C3=C(O)c4c(O)cccc4[C@@](C)(O)[C@H]3C[C@@H]12,WILD TYPE,agar diffusion,30 µg,6 mm
CCN(CC)N1C(=O)C(C(Sc2ccccc2)c2c(Cl)cc(C)cc2Cl)SC1=S,ATCC 2091,agar diffusion / agar,100 mg/mL,16–20 mm
Cc1ccc(N2NOC(=O)C2S(=O)(=O)Nc2nc(-c3ccc([N+](=O)[O-])cc3)cs2)cc1,MTCC 227,agar diffusion,250 µg/mL,17 mm
CC(C)c1c(N2CCN(c3ccccc3)CC2)[nH]c(=O)[nH]c1=O,IFO 0583,agar diffusion / agar,200 µg/disc,<10 mm
O=C1NC(=S)S/C1=C\c1ccc[nH]1,ATCC 2091,agar diffusion / agar,100 mg/mL,5–9 mm
CC(C)=CCOc1ccc(C2CC(=O)c3ccc(O)cc3O2)cc1,ATCC 10231,agar diffusion / agar,100 µg/mL,0 mm

5 of the rows above, restated:

SMILES | strain or isolate | read by | dose | result
CCN(CC)N1C(=O)C(C(Sc2ccccc2)c2ccc(C)cc2C)SC1=S | ATCC 2091 | agar diffusion / agar | 100 mg/mL | 16–20 mm
CC(=O)Oc1c(-c2ccccc2)oc2ccccc2c1=O | - | agar diffusion | 100 µg/mL | 15 mm
CCCCc1nc(Cl)c(-c2cc(-c3ccc(Br)s3)nc3c2C(=O)c2ccccc2-3)n1Cc1ccccc1 | MTCC 7253 | agar diffusion | 10 µg/disc | 9 mm
CCN(CC)N1C(=O)C(C(Sc2ccccc2)c2c(Cl)cc(C)cc2Cl)SC1=S | ATCC 2091 | agar diffusion / agar | 100 mg/mL | 16–20 mm
CC(=O)Oc1c(-c2ccc(C)cc2)oc2ccccc2c1=O | - | agar diffusion | 100 µg/mL | 15 mm